For this series, the system named is Flag-His6 fusion protein. Put plainly: AlphaScreen counter screen. Conditions: counter screen vs AS. The method, then: For the IN-LEDGF AS assay, compound dilutions and His6-tagged IN (30 nM final concentration) were initially incubated together in 10 µl of reaction buffer (25 mM Tris-Cl pH 7.5, 25 mM NaCl, 5 mM MnCl2, 5 mM MgCl2, 5 mM BME, 50 µg/ml bovine serum albumin and 0.05% (v/v) Tween-20) for 10 min at room temperature in AlphaPlate™-384 SW plates (Perkin-Elmer). Subsequently, 10 µl reaction buffer containing Flag-tagged LEDGF (30 nM final concentration), AS Ni-chelate donor beads (Perkin-Elmer; 5 µg/ml final) and AlphaLISA anti-FLAG acceptor beads (Perkin-Elmer; 5 µg/ml final) were added and protein association allowed to occur for 1 hour in the dark at 30°C before emission from the donor beads was measured using a PHERAstar FS plate-reader (BMG Labtech). Counter screen assays to ensure the compounds were not inhibiting the binding of the His or FLAG tags to the beads or quenching of the signal, were performed under the same reaction conditions except that a Flag-His6 fusion protein was used (20 nM final) instead of individual His6-tagged IN and Flag-tagged LEDGF proteins, and the initial 10 min incubation at room temperature was omitted. The specificity of FLAG-LEDGF for IN binding was confirmed by competing the FLAG-LEDGF with untagged LEDGF. At a 1∶1 molar ratio with FLAG-LEDGF, untagged LEDGF reduced the AS signal by 50%.
(In general: In Alpha technology, singlet oxygen from a donor bead excites a nearby acceptor bead.)

In the case of `C=CCN(Cc1ccccc1C(=O)NC(CCC)c1ccc(OC)cc1)Cc1ccc2c(c1C(=O)O)OCO2` (stereo not shown) [Compound 10], the “fold less activity in counter screen than in AS assay” value is recorded as 6 fold.

Values taken from publication PMC3393750, “Small Molecule Inhibitors of the LEDGF Site of Human Immunodeficiency Virus Integrase Identified by Fragment Screening and Structure Based Design” (PLoS ONE, 2012).
